Reference: patent US20220380341A1, “INHIBITORS OF HIV-1 NEF FOR THE TREATMENT OF HIV DISEASE” (priority 2018, published 2022)
Like-named read-outs stand apart in the source and are kept apart here.

Amino acid sequences for entries named in this document (tags omitted). Residues count along the entry.
UniProt P03406, 2-206 V11I/T15A/A33V/T51N limits assumed: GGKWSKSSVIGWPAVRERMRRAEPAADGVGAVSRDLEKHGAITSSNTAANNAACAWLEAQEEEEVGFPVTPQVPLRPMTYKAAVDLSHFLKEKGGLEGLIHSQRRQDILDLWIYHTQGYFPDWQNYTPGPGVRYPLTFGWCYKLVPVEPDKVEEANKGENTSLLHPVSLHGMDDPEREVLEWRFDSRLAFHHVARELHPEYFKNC

Columns and labels:
HIV-1NL4-3 = assay: HIV-1 infectivity assay in TZM-bl reporter cell line (LTR-luciferase, 48 h); type: cell-based; conditions: for % Infectivity Inhibition: 1.0 μM, TZM-bl reporter cell line, Table 4; for HIV-1 Infectivity % Inhibition Norm. to Δ-Nef @ 1 μM: Table 2, TZM-bl cells, 48 h, 100% = Nef-defective HIV-1
Procedure: In particular, the tables show antiretroviral activity as percent inhibition of HIV-1 infectivity at 1 μM. In brief, this assay uses the TZM-bl reporter cell line, which carries a stable copy of the HIV-1 LTR coupled to luciferase. Cells are infected with HIV-1NL4-3 in the presence and absence of each compound, and luciferase activity is measured 48 h later. This assay measures early events in the HIV-1 life cycle, including viral entry, reverse transcription, nuclear entry and integration, and viral transcription. All assays include control cells infected with Nef-defective HIV-1, which replicates at 30-50% of wild-type in this system. Results are normalized to percent inhibition relative to DMSO-treated control cells infected with wild-type HIV-1 (0% inhibition) and DMSO-treated cells infected with Nef-defective HIV-1 (100% of the Nef-dependent effect)—see column 3. In addition, cell viability is measured in the TZM-bl cell line in the presence of each test compound and in the absence of HIV-1 infection, using the Cell Titer Blue cell viability assay (Promega; column 4).

HIV-1 NefNL4-3 = HIV-1 NefNL4-3 (Human immunodeficiency virus type 1 group M subtype B, UniProt P03406, A33V/T15A/T51N/V11I); assay: Surface plasmon resonance binding to recombinant full-length Nef (NL4-3); conditions: for T, minutes (residence time): 1:1 Langmuir fit, T = 1/koff; for RU30/RUNef (extent of binding): response units at 30 μM relative to Nef immobilized on the SPR chip
Procedure: FIG. 1. Structures and by surface plasmon resonance (SPR) sensorgrams for several compounds disclosed herein. Each of the compounds shown was assayed for interaction with HIV-1 NefNL4-3 by SPR. In particular, Recombinant HIV-1 Nef protein (strain NL4-3) was expressed in E. coli and purified to homogeneity. The Nef protein was immobilized on the surface of a carboxymethyl dextran hydrogel biosensor chip, and each compound was injected over a range of concentrations in duplicate (concentrations shown at lower left) for 90 seconds, followed by a 120 second dissociation phase. The resulting sensorgrams were best fit by either a 1:1 Langmuir binding model or by a two-step induced-fit model, and the KD values shown were calculated from the resulting kinetic rate constants. Compounds were tested over the range of concentrations shown, and the resulting sensorgrams were best-fit by a two-step induced-fit model. The resulting KD values are shown below each compound number.
FIG. 2. Structures and SPR data for several compounds disclosed herein. Each of the compounds shown was assayed for interaction with HIV-1 NefNL4-3 by SPR. Compounds were tested over the range of concentrations shown, and the resulting sensorgrams were best-fit by a two-step induced-fit model. The resulting KD values are shown below each compound.

[1] = Table 4, SPR fit 1:1 Langmuir, KD = koff/kon
[2] = read-out: Nef NL4-3 Binding, SPR 1:1 or 2-site fitting KD1, Table 2, 1:1 Langmuir fit where the KD2 cell says '1 to 1 fitting', else 2-site fit

| Compound | % Infectivity Inhibition (HIV-1NL4-3) [%] | HIV-1 Infectivity % Inhibition Norm. to Δ-Nef @ 1 μM (HIV-1NL4-3) [%] | T, minutes (residence time) (HIV-1 NefNL4-3; Table 4) | Kd (HIV-1 NefNL4-3; [1]) [µM] | Kd (HIV-1 NefNL4-3; [2]) [µM] | RU30/RUNef (extent of binding) (HIV-1 NefNL4-3) |
| --- | --- | --- | --- | --- | --- | --- |
| Fc1ccc(-c2nn(-c3cc(C(F)(F)F)n[nH]3)cc2CCc2ccccc2)cc1 [Compound I-1501] | 3 | −21.4 | 2.36E + 02 minutes | 0.198 | 0.942 | 1.15E- 02 |
| CS(=O)(=O)c1ccc(-c2nn(-c3cc(C4CC4)n[nH]3)c(O)c2CCC2CCOCC2)cc1 [Compound I-607] | 57.3 | 57.3 | 3.74E- 01 minutes | 88.6 | 6.92 | 7.73E- 03 |
